Results of unrelated studies side by side (data: NIAID ChemDB).

Common to all: growth or infection tests; species: HIV-1

An empty or dashed field is not shown.

compound,changes,method,cell line,strain or isolate,read-out,value
O=c1[nH]cnc2c1ncn2[C@H]1CC[C@@H](CO)O1,RT-A62V V75I F77C F116Y Q151M,p24,PBMC,XM-Q151M,EC90,106 µM
Nc1ccn([C@@H]2CS[C@H](CO)O2)c(=O)n1,RT-M184V,p24,PBMC,Recombinant,EC50,5–10 µM
Cc1cn([C@H]2C[C@H](N=[N+]=[N-])[C@@H](CO)O2)c(=O)[nH]c1=O,,p24,MT-4,NL4-3 WT,EC90,0.03 µM
Cc1c(O)cccc1C(=O)N[C@@H](CSc1ccccc1)[C@H](O)CN1C[C@H]2CCCC[C@H]2C[C@H]1C(=O)NC(C)(C)C,PR-M46I I47V I50V,p24,PBMC,HXB2,EC90,0.035 µM
O=S1(c2ccccc2)=NC(=S)Nc2ccccc21,,cytopathic effect / XTT,AA5,RF,EC50,2.88 µM
CCCN(C)C(=O)Oc1nsnc1-c1c(Cl)ccc(N)c1Cl,RT-Y181C,MTT,MAGI,IIIB,EC50,1.6 µM
Cc1cn([C@H]2C[C@H](N=[N+]=[N-])[C@@H](CO)O2)c(=O)[nH]c1=O,,cytopathic effect / XTT,,RF,EC50,0.037 µM
Cc1cn([C@H]2C[C@H](N=[N+]=[N-])[C@@H](CO)O2)c(=O)[nH]c1=O,,p24,PBMC,8684 CLADE C CLADE C,EC50,0.004 µM
Fc1cccc(F)c1[C@H]1SCc2nc3ccccc3n21,RT-Y181C,cytopathic effect / XTT,CEM,IIIB,EC50,≥6.9 µM
CCc1c(C(=O)c2cc(C)cc(C)c2)n(CC2CC=CC2)c(=O)[nH]c1=O,RT-L100I,cytopathic effect / XTT,CEM + CEM-SS,NL4-3,EC50,0.0002 µM
Nc1ccn([C@H]2CC[C@@H](CO)O2)c(=O)n1,RT-T69G K103N),p24,MT-2,RT-T69G K103N,EC50,0.163 µM
CCc1cc(NCc2nc3c(Cl)ccc(Cl)c3o2)c(=O)[nH]c1C,,p24,MT-4,IIIB,EC95,0.025–0.05 µM
CC(C)=CCN1Cc2cccc3[nH]c(=S)n(c23)C[C@@H]1C,,RT activity,MT-2,HX,EC50,0.13 µM
Fc1cccc(F)c1C1SCc2nc3ccccc3n21,,cytopathic effect / XTT,CEM + CEM-SS,SK1,EC50,0.2 µM
Fc1cccc(F)c1[C@@H]1SCc2nc3ccccc3n21,,cytopathic effect,MT-4,NDK,EC50,0.79 µM
O=c1[nH]cnc2c1ncn2[C@H]1CC[C@@H](CO)O1,,cytopathic effect / MTT,MT-4,IIIB,EC50,19 µM
CC(C)CN(C[C@@H](O)[C@H](Cc1ccccc1)NC(=O)[C@@H](NC(=O)CNCc1cccc(F)c1)C(C)(C)C)S(=O)(=O)c1ccc(N)cc1,,virus yield,MT-2,IIIB,EC90,0.0088 µM
Cc1cn([C@@H]2O[C@H](CO[Si](C)(C)C(C)(C)C)C3(OS(=O)(=O)C=C3N)[C@H]2O[Si](C)(C)C(C)(C)C)c(=O)n(C)c1=O,RT-V106N,cytopathic effect / XTT,CEM,IIIB,EC50,3.5 µM
Cc1cn([C@H]2C=C[C@@H](CO)O2)c(=O)[nH]c1=O,RT-delta67 K103N,p24,MT-2,,EC50,0.378 µM
CC(C)OC(=O)OCOP(=O)(CO[C@H](C)Cn1cnc2c(N)ncnc21)OCOC(=O)OC(C)C,M184V/A502V,GFP,TZM-gfp,NL4-3,EC50,0.15 µM
O=c1[nH]cnc2c1ncn2[C@H]1CC[C@@H](CO)O1,RT-Y181C,plaque count,HT4 + HT4 LacZ-1,HXB2,EC50,1.3 µM
CCc1cc(NCc2nc3c(C)ccc(C)c3o2)c(=O)[nH]c1C,,p24,MT-4,RUTZ,EC95,0.05 µM
c1cc(CN2CCCNCCNCCCNCC2)ccc1CN1CCCNCCNCCCNCC1,,p24,PBMC,SW7 CLADE C X4,EC50,<0.1 µM
Cc1cc(S(N)(=O)=O)ccc1NC(=O)COc1ccc(Cl)cc1C(=O)c1cc(Cl)cc(C#N)c1,RT-D67N K70R T215Y,β-galactosidase,MAGI,AZT-resistant (RT D67N K70R T215Y) RTMCY,EC50,0.0005 µM
Cc1cn([C@H]2C[C@H](N=[N+]=[N-])[C@@H](CO)O2)c(=O)[nH]c1=O,RT-T69K K70G V75I F77L F116Y Q151M M184V,luciferase,HeLa,NRTI resistant,EC50,4.5 µM
O=c1[nH]cnc2c1ncn2[C@H]1CC[C@@H](CO)O1,RT-M41L M184V T215Y,plaque count,HT4 + HT4 LacZ-1,RTMN(184) (RT M41L M184V T215Y),EC50,4.9 µM
Cc1cn([C@H]2C[C@H](N=[N+]=[N-])[C@@H](CO)O2)c(=O)[nH]c1=O,RT-F77L,p24,PBMC,Recombinant,EC50,0.001 µM
O=C1N(Cc2ccc(CO)cc2)[C@H](Cc2ccccc2)[C@H](O)[C@@H](O)[C@@H](Cc2ccccc2)N1Cc1ccc(CO)cc1,PR-L90M,cytopathic effect / XTT,MT-4,IIIB,EC50,0.3 µM
Nc1nc(=O)n([C@@H]2CS[C@H](CO)O2)cc1F,RT-M184I,cytopathic effect / MTT,MT-4,RF,EC50,323 µM
Cc1ccnc2c1NC(=O)c1cccnc1N2C1CC1,RT-M41L Y181C M184V T215Y,plaque count,HT4 + HT4 LacZ-1,RTMN(181 184) (RT M41L Y181C M184V T215Y),EC50,7.9 µM
COC(=O)[C@H](C)NP(=O)(OC[C@@H]1C=C[C@H](n2cc(C)c(=O)[nH]c2=O)O1)Oc1ccc(Br)cc1,RT-Y188L,p24,PBMC,C467-4 NNRTI-resistant clinical isolate,EC50,0.042 µM
Cn1c2ccccc2c2c1cc(C#N)c(=O)n2-c1ccc([N+](=O)[O-])cc1,RT-M41L E44D D67N T69D V118I L210W T215Y,luciferase,HeLa,NRTI resistant,EC50,0.019 µM
CO[C@H]1O[C@@H](n2ccc(=O)[nH]c2=O)C[C@@H]1N=[N+]=[N-],,RT activity,MT-2,HX,EC50,27.6 µM
Cc1cn([C@H]2C=C[C@@H](CO)O2)c(=O)[nH]c1=O,RT-M41L A62V S68N G112S M184V,luciferase,HeLa,Recombinant,EC50,0.49 µM
Cc1cn([C@H]2C[C@H](N=[N+]=[N-])[C@@H](CO)O2)c(=O)[nH]c1=O,RT-D67N K70R T215Y,plaque count,HT4 + HT4-6C,P026B (RT D67N K70R T215Y),EC50,2.8 µM
C[C@H](Cn1cnc2c(N)ncnc21)OCP(=O)(O)O,RT-K103N Y181C,p24,MT-2,A17,EC50,0.5 µM
Cc1ccnc2c1NC(=O)c1cccnc1N2C1CC1,RT-Y181C,p24,PBMC,A17 NNRTI-resistant lab strain,EC50,47 µM

The last 5 rows once more:

{"compound": "CO[C@H]1O[C@@H](n2ccc(=O)[nH]c2=O)C[C@@H]1N=[N+]=[N-]", "method": "RT activity", "cell line": "MT-2", "strain or isolate": "HX", "read-out": "EC50", "value": "27.6 µM"}
{"compound": "Cc1cn([C@H]2C=C[C@@H](CO)O2)c(=O)[nH]c1=O", "changes": "RT-M41L A62V S68N G112S M184V", "method": "luciferase", "cell line": "HeLa", "strain or isolate": "Recombinant", "read-out": "EC50", "value": "0.49 µM"}
{"compound": "Cc1cn([C@H]2C[C@H](N=[N+]=[N-])[C@@H](CO)O2)c(=O)[nH]c1=O", "changes": "RT-D67N K70R T215Y", "method": "plaque count", "cell line": "HT4 + HT4-6C", "strain or isolate": "P026B (RT D67N K70R T215Y)", "read-out": "EC50", "value": "2.8 µM"}
{"compound": "C[C@H](Cn1cnc2c(N)ncnc21)OCP(=O)(O)O", "changes": "RT-K103N Y181C", "method": "p24", "cell line": "MT-2", "strain or isolate": "A17", "read-out": "EC50", "value": "0.5 µM"}
{"compound": "Cc1ccnc2c1NC(=O)c1cccnc1N2C1CC1", "changes": "RT-Y181C", "method": "p24", "cell line": "PBMC", "strain or isolate": "A17 NNRTI-resistant lab strain", "read-out": "EC50", "value": "47 µM"}

Neighbouring rows are from separate reports. ECn is the concentration giving n% inhibition of infection, replication or growth. a–b is a range or a potency band.